Compound potency records, mixed from different reports. Data source: NIAID ChemDB in PubChem.

Shared fields: enzyme or target tests; species: HIV-1; protein: Protease; method: HPLC; endpoint: Ki

Blank or dashed fields: not listed here. Neighbouring rows are from separate reports.

smiles	strain or isolate	mutations	value
CC(C)C[C@H](NC(=O)[C@@H](N)[C@@H](C)O)C(=O)N[C@@H](CC(N)=O)C(=O)N[C@@H](Cc1ccccc1)B1O[C@H](C2CCCCC2)[C@@H](C2CCCCC2)O1			50 µM
COc1ccc(C[C@H](NC(=O)c2cccc(O)c2C)[C@H](O)C(=O)N2CSC(C)(C)[C@H]2C(=O)NCc2ccccc2C)cc1			0.000031 µM
CSC[C@H](NC(=O)COc1cccc(Nc2ccccc2)c1)C(=O)N[C@@H](Cc1ccccc1)[C@H](O)C(=O)N1CSC(C)(C)[C@H]1C(=O)NC(C)(C)C			0.000184 µM
Cc1ccccc1CNC(=O)[C@H]1N(C(=O)[C@@H](O)[C@H](Cc2ccccc2)NC(=O)c2cccc(O)c2C)CSC1(C)C			0.000035 µM
CC(C)(C)OC(=O)N[C@@H](Cc1ccc([N+](=O)[O-])cc1)/C(O)=C(\C#N)c1ccc([N+](=O)[O-])cc1			60 µM
COc1c(O)cc2oc3cc(O)c(CC=C(C)C)c(O)c3c(=O)c2c1CC=C(C)C			10.7 ± 0.95 µM
O=C1N[C@H](Cc2ccccc2)[C@H](O)CN[C@H]1Cc1ccccc1			≤0.01 µM
O=C1N(Cc2cccc(Br)c2)[C@H]2[C@H](CS(=O)(=O)[C@H]2CCCCCO)N1Cc1cccc(Br)c1			6.9 µM
CC(C)(C)OC(=O)[C@@H]1CCCN1C(=O)[C@@H](O)[C@H](Cc1ccccc1)NC(=O)[C@H](CC(N)=O)NC(=O)c1ccc2ccccc2n1	IIIB		0.036 µM
O=C1N(Cc2ccccc2)[C@H](CCc2ccccc2)[C@@H](O)[C@@H](Cc2ccccc2)N1Cc1ccccc1	RF		0.97 µM
CC[C@H](C)[C@H](NC(=O)[C@H](Cc1ccccc1)C[C@H](O)[C@H](Cc1ccccc1)NC(=O)OC(C)(C)C)C(=O)NCc1nc2ccccc2[nH]1			0.00007 µM
CC(C)(C)OC(=O)N[C@H](Cc1ccccc1)/C(O)=C(\C#N)c1ccc([N+](=O)[O-])cc1			54 µM
Cc1ccccc1CNC(=O)[C@H]1N(C(=O)[C@@H](O)[C@H](Cc2ccc(OC(C)C)cc2)NC(=O)c2cccc(O)c2C)CSC1(C)C			0.00004 µM
CC(C)(C)OC(=O)[C@@H]1CCCN1C(=O)[C@@H](O)[C@H](Cc1ccccc1)NC(=O)[C@H](CC(N)=O)NC(=O)c1cnc2ccccc2n1	IIIB		0.045 µM
CC[C@H](C)[C@H](NC(=O)[C@@H](C[C@H](O)[C@H](CC1CCCCC1)NC(=O)OC(C)(C)C)C(C)C)C(=O)NCc1cccnc1			0.07 µM
CC(C)CC[C@H](NC(=O)CCCCCCCCCCCCCCC(=O)N[C@@H](CC(N)=O)C(=O)N[C@@H](Cc1ccccc1)C(=O)O)C(=O)N[C@@H](Cc1ccccc1)C(N)=O			0.502 µM
CC(C)(C)NC(=O)[C@H]1N(C(=O)[C@@H](O)[C@H](Cc2ccccc2)NC(=O)[C@H](CC(N)=O)NC(=O)COc2cccc3cnccc23)CSC1(C)C			0.000349 µM
CCC(C)[C@H](NC(=O)CCCCCCCCCCCCCCC(=O)N[C@@H](CC(N)=O)C(=O)N[C@@H](Cc1ccccc1)C(=O)O)C(=O)N[C@@H](Cc1ccc(-c2ccccc2)cc1)C(N)=O			0.261 µM
CCNC(=O)[C@@H](NC(=O)Cc1ccccc1)[C@@H]1N[C@@H](C(=O)NCCNC(=O)[C@@H]2N[C@@H]([C@H](NC(=O)Cc3ccccc3)C(=O)NCC)SC2(C)C)C(C)(C)S1	RF		0.0001 µM
CC(=O)N[C@@H](CO)C(=O)N[C@@H](CC(C)C)C(=O)N[C@@H](CC(N)=O)C(=O)N[C@@H](Cc1ccccc1)B(O)O		PR-M46I V82F I84V L90M	150 µM
Cc1cccc(C)c1CNC(=O)[C@H]1N(C(=O)[C@@H](O)[C@H](Cc2ccc3c(c2)OCO3)NC(=O)c2cccc(O)c2C)CSC1(C)C			0.000022 µM
CC(C)[C@H](NC(=O)COc1cccc(N(C)C)c1)C(=O)N[C@@H](Cc1ccccc1)[C@H](O)C(=O)N1CSC(C)(C)[C@H]1C(=O)NC(C)(C)C			0.000318 µM
CCCOc1ccc(C[C@H](NC(=O)c2cccc(O)c2C)[C@H](O)C(=O)N2CSC(C)(C)[C@H]2C(=O)NCc2ccccc2C)cc1			0.000059 µM
CC[C@H](NC(=O)COc1cccc(N(C)C)c1)C(=O)N[C@@H](Cc1ccccc1)[C@H](O)C(=O)N1CSC(C)(C)[C@H]1C(=O)NC(C)(C)C			0.000399 µM

Repeating the first 2 entries:

smiles,strain or isolate,mutations,value
CC(C)C[C@H](NC(=O)[C@@H](N)[C@@H](C)O)C(=O)N[C@@H](CC(N)=O)C(=O)N[C@@H](Cc1ccccc1)B1O[C@H](C2CCCCC2)[C@@H](C2CCCCC2)O1,,,50 µM
COc1ccc(C[C@H](NC(=O)c2cccc(O)c2C)[C@H](O)C(=O)N2CSC(C)(C)[C@H]2C(=O)NCc2ccccc2C)cc1,,,0.000031 µM